Laboratory results from PMC5000474, “Discovery of a Carbazole-Derived Lead Drug for Human African Trypanosomiasis” (Scientific Reports, 2016).

System: bloodstream T. brucei
Test: Trypanosome proliferation inhibition assay (GI50)
Type: cell-based, Trypanosoma brucei brucei
Conditions: CBL0127 vs 1, CBL0100Q vs CBL0100
Experimental: T. brucei (brucei or rhodesiense) were seeded at 4 × 10^3 cells/mL in 24-well plates (0.5 or 1 mL of culture per well). […] Then, at least five drug concentrations[26] covering this range was used for subsequent assays. Each concentration was tested in duplicate. […] Cells were counted only if they were motile. […] Final mean GI50 values were calculated based on two independent experiments, each with at least five data points performed in duplicate. T. brucei were seeded at 4 × 10^3 cells/mL and dispensed into wells of a 384-well black plate (Greiner; Frickenhausen, Germany). Wells in two columns per plate were filled with 50 μL of HMI-9 medium using a Multidrop Combi (Thermo Scientific; Waltham, MA) to serve as a background control. Fifty microliters of trypanosome suspension was added to separate columns using a Multidrop Combi. Lastly, an additional 50 μL of cell resuspension was added to only the top row of wells that contained cells (row A, labeled by Greiner), using an Xplorer multichannel pipette (Eppendorf; Hamburg-Eppendorf, Germany) bringing final volumes of cell-containing wells in the top row to 100 μL. […] St. Louis, MO). […] Base-line corrected non-linear regression graphs were generated and GI50 values determined using GraphPad Prism (GraphPad Software; La Jolla, CA). Final mean GI50 values were calculated based on four separate biological replicates.

| Structure (SMILES) | reduction in potency (potency loss) versus comparator [fold] |
| --- | --- |
| CCN(CC)CCCC(C)n1c2ccc3c(c2c2c4c(ccc21)C(=O)CC4)CCC3=O (centres unmarked) [CBL0100Q] | ~250 |
| CC(=O)c1ccc2c(c1)c1cc(C(C)=O)ccc1n2CCCNC(C)C [CBL0127] | 3 |
